Measured values from several laboratories, pooled; numbers as filed in NIAID ChemDB.

Common to all: target-level tests

Percent inhibition refers to the dose given; in toxicity tests it is the harm to the cells. Conditions beyond the fields shown may differ between rows. Blank or dashed fields: not listed here. ICn is the concentration giving n% inhibition.

| SMILES | tested at | strain or isolate | target | species | method | measure | result |
|---|---|---|---|---|---|---|---|
| CC(N)C12CC3CC(CC(C3)C1)C2 | 50 µg/mL | A/PR/1/74 rimantadine-susceptible | Virion transcriptase | Influenza A virus | nucleotide incorporation | inhibition | 19% |
| O=P(O)(O)C(F)(Br)P(=O)(O)O |  |  | DNA polymerase | Herpes simplex virus 1 |  | IC50 | >100 µM |
| COC(=O)C1c2cc3c(c(O)c2C(O)CC1(C)O)C(=O)c1c(O)cc2c(c1C3=O)OC1OC2(C)C(O)C(N(C)C)C1O |  |  | NTPase/helicase | West Nile virus |  | IC50 | >650 µM |
| CC(=O)N1CCN(c2ccc(OC[C@H]3CO[C@](Cn4ccnc4)(c4ccc(Cl)cc4Cl)O3)cc2)CC1 |  | 652 | Lanosterol 14-alpha demethylase | Candida albicans |  | IC50 | 0.038 µM |
| COC(=O)c1cc(=O)[nH]c(=O)[nH]1 | 2000 µM | RH | Uracil phosphoribosyltransferase | Toxoplasma gondii |  | inhibition | <5% |
| CC#Cc1cn([C@@H]2O[C@H](CO)[C@@H](O)[C@@H]2O)c(=O)[nH]c1=O |  |  | Thymidine kinase | Varicella zoster virus |  | Ki | 5.19 µM |
| NC1C(=O)NC(=O)NC1=O |  | RH | Uracil phosphoribosyltransferase | Toxoplasma gondii |  | IC50 | >2000 µM |
| Clc1ccc(COC(Cn2ccnc2)c2ccc(Cl)cc2Cl)c(Cl)c1 |  | 652 | Lanosterol 14-alpha demethylase | Candida albicans |  | IC50 | 0.32 µM |
| Nc1nccnc1C(=O)O |  | RH | Uracil phosphoribosyltransferase | Toxoplasma gondii |  | IC50 | >2000 µM |
| COc1ccnc2[nH]cc(C(=O)C(=O)N3CCN(C(=O)c4ccccc4)C[C@H]3C)c12 |  |  | gp120 |  | ELISA | IC50 | 1.3 µM |
| O=Cc1cc([N+](=O)[O-])cc([N+](=O)[O-])c1O |  |  | UDP-galactopyranose mutase | Mycobacterium tuberculosis |  | IC50 | >100 µM |
| CN(Cc1cnc2nc(N)nc(N)c2n1)c1ccc(C(=O)N[C@@H](CCC(=O)O)C(=O)O)c2ccccc12 |  | RH | DHFR | Toxoplasma gondii |  | IC50 | 0.00228 µM |
| CC(F)(C(=O)O)P(=O)(O)O | 100 µM |  | DNA polymerase | Herpes simplex virus 1 |  | inhibition | 0% |
| O=C(N/N=C/c1ccc(O)c([N+](=O)[O-])c1)c1ccc(S(=O)(=O)NC[C@H]2O[C@@H](n3ccc(=O)[nH]c3=O)[C@H](O)[C@@H]2O)cc1 |  |  | UDP-galactopyranose mutase | Mycobacterium tuberculosis |  | IC50 | >100 µM |
| O=c1[nH]c(=O)n([C@@H]2O[C@H](CO)[C@@H](O)[C@H]2O)cc1/C=C/Br |  |  | Thymidine kinase | Varicella zoster virus |  | Ki | 4.48 µM |
| CCCCNC(=O)[C@@H](C[C@H](O)[C@H](CC1CCCCC1)NC(=O)[C@H](CCCC)N1CCN(C(=O)N2CCN(C)CC2)[C@H](Cc2ccccc2)C1=O)C(C)C |  |  | Secreted aspartic proteinase | Candida albicans |  | IC50 | 0.0014 µM |
| CCc1nc(N)nc(N)c1-c1ccc(Cc2ccccc2)c([N+](=O)[O-])c1 |  | RH | DHFR | Toxoplasma gondii |  | IC50 | 0.019 µM |
| CC1(C)C2CC[C@@H](CNc3nnc(NC(=O)c4cc(F)cc(F)c4)s3)C1C2 |  |  | Polymerase | Human cytomegalovirus |  | IC50 | >25 µM |
| CC(Br)(C(=O)O)P(=O)(O)O | 100 µM |  | DNA polymerase | Epstein-Barr virus |  | inhibition | 50% |
| O=c1cc(O)cc[nH]1 | 2000 µM | RH | Uracil phosphoribosyltransferase | Toxoplasma gondii |  | inhibition | <5% |
| CN(C(=O)c1ccccc1)N1C(=O)/C(=C/c2ccc(Cl)c(Cl)c2)SC1=S |  |  | NS5B polymerase | Hepatitis C virus |  | IC50 | ≤30 µM |
| Cc1c(Sc2ccccc2)n(COCCO)c(=O)[nH]c1=O |  |  | Reverse transcriptase | HIV-1 |  | IC50 | <0.5 µM |
| CCCCCCCC/C=C/CCCCCCCC(=O)Nc1nnc(NC2CCN(C(=O)OCC)CC2)s1 |  |  | Polymerase | Human cytomegalovirus |  | IC50 | <25 µM |
| NN1C(=O)/C(=C\c2ccc(Oc3ccccc3)cc2)SC1=S |  |  | NS5B polymerase | Hepatitis C virus |  | IC50 | >30 µM |
| O=C(O)C(F)(Br)P(=O)(O)O |  |  | DNA polymerase | Epstein-Barr virus |  | IC50 | 94 µM |
| COc1cc(/C=C2/SC(=S)N(NS(=O)(=O)c3ccccc3)C2=O)ccc1F |  |  | NS5B polymerase | Hepatitis C virus |  | IC50 | ≤30 µM |
| CC1(C)N=C(N)N=C(N)N1c1cccc(CCCCc2cccc(N)c2)c1 |  | RH | DHFR | Toxoplasma gondii |  | IC50 | 0.015 µM |
| CCC(CC)[C@H](NC(C)=O)[C@@H]1[C@H](O)[C@@H](C(=O)O)C[C@H]1N=C(N)N |  | WILD TYPE (152) | Influenza virus neuraminidase | Influenza A virus |  | IC50 | 0.0014 µM |
| COc1cc(Cl)nc(NC(=S)NC(=O)c2ccc(-c3ccccc3Cl)o2)n1 |  | H1N1 | Neuraminidase | Influenza A virus |  | IC50 | 18.7 µM |
| CC(Cl)(C(=O)O)P(=O)(O)O | 100 µM |  | DNA polymerase | Epstein-Barr virus |  | inhibition | 44% |
| CC(=O)NC[C@@H](C=O)NC(=O)[C@H](Cc1ccccc1)NC(=O)[C@H](CC(C)C)NC(=O)OCc1ccccc1 |  | TYPE 14 | Protease | Rhinovirus | FRET | Ki | 0.006 µM |
| COc1cccc2c1C(=O)c1c(O)c3c(c(O)c1C2=O)C[C@@](O)(C(C)=O)C[C@@H]3O[C@H]1C[C@H](N)[C@H](O)[C@H](C)O1 |  |  | NTPase/helicase | Dengue virus |  | IC50 | 150 µM |
| O=c1ccnc[nH]1 | 2000 µM | RH | Uracil phosphoribosyltransferase | Toxoplasma gondii |  | inhibition | <10% |
| O=c1[nH]c(=O)n([C@@H]2O[C@H](CO)[C@@H](O)[C@@H]2F)cc1/C=C/Br |  |  | Thymidine kinase | Varicella zoster virus |  | Ki | 2.75 µM |
| CN1C(=O)c2c(c3c4ccccc4n([C@@H]4O[C@H](CO)[C@@H](O)[C@H](O)[C@H]4O)c3c3[nH]c4ccccc4c23)C1=O |  |  | Protein kinase C | Candida albicans |  | IC50 | >100 µM |
| O=C1/C(=C\c2ccc(Cl)c(Cl)c2)SC(=S)N1NS(=O)(=O)c1ccccc1Cl |  |  | NS5B polymerase | Hepatitis C virus |  | IC50 | ≤30 µM |
| CCCCNC[C@@H](C[C@H](O)[C@H](CC1CCCCC1)NC(=O)[C@H](CCCC)N1CCN(C(=O)N2CCN(C)CC2)[C@@H](Cc2ccccc2)C1=O)C(C)C |  |  | Secreted aspartic proteinase | Candida albicans |  | IC50 | 0.49 µM |
| O=C1/C(=C\c2ccc(Cl)c(F)c2)SC(=S)N1NS(=O)(=O)c1ccccc1 |  |  | NS5B polymerase | Hepatitis C virus |  | IC50 | ≤30 µM |
| c1cncnc1 |  | RH | Uracil phosphoribosyltransferase | Toxoplasma gondii |  | IC50 | >2000 µM |
| Nc1nc(N)c2c(n1)CCc1c(Cl)cc(Cl)cc1-2 |  |  | DHFR | Pneumocystis carinii |  | IC50 | 1.07 µM |
| C=Cc1cn([C@H]2C[C@H](O)[C@@H](CO)O2)c(=O)[nH]c1=O |  |  | Thymidine kinase | Varicella zoster virus |  | Ki | 0.41 µM |
| S=c1nccc(Oc2ccccc2)[nH]1 | 2000 µM | RH | Uracil phosphoribosyltransferase | Toxoplasma gondii |  | inhibition | <10% |
| CCc1nc(N)nc(N)c1-c1ccc(Cc2ccccc2)c([N+](=O)[O-])c1 |  |  | DHFR | Pneumocystis carinii |  | IC50 | 1.03 µM |
| O=c1[nH]c(=O)n([C@@H]2O[C@H](CO)[C@@H](O)[C@@H]2O)cc1C=C(Br)Br |  |  | Thymidine kinase | Varicella zoster virus |  | Ki | 4.05 µM |
| O=C(O)C(F)(F)P(=O)(O)O | 100 µM |  | DNA polymerase | Epstein-Barr virus |  | inhibition | 77% |
| Cc1ccc2c(ccc3nc(N)nc(N)c32)c1 |  |  | DHFR | Pneumocystis carinii |  | IC50 | 0.46 µM |
| O=C(O)CP(=O)(O)O |  |  | DNA polymerase | Herpes simplex virus 1 |  | IC50 | 1.3 µM |
| O=C(N/N=C/c1cc([N+](=O)[O-])cc([N+](=O)[O-])c1O)c1ccc(S(=O)(=O)NC[C@H]2O[C@@H](n3ccc(=O)[nH]c3=O)[C@H](O)[C@@H]2O)cc1 |  |  | UDP-galactopyranose mutase | Mycobacterium tuberculosis |  | IC50 | 6 µM |
| O=C/C=C/c1ccccc1 |  |  | Chitin synthase 3 | Saccharomyces cerevisiae |  | Ki | 970 µM |
| CN(Cc1cnc2nc(N)nc(N)c2n1)c1ccc(C(=O)N[C@@H](CCC(=O)N[C@@H](CCC(=O)N[C@@H](CCC(=O)O)C(=O)O)C(=O)O)C(=O)O)cc1 |  | RH | DHFR | Toxoplasma gondii |  | IC50 | 0.00107 µM |
| Cc1c[nH]c(=O)[nH]c1=O |  | RH | Uracil phosphoribosyltransferase | Toxoplasma gondii |  | IC50 | >2000 µM |
| CCS(=O)(=O)O.Cc1cc(NC(=O)CCc2ccc(N3C(N)=NC(N)=NC3(C)C)cc2)ccc1S(=O)(=O)F |  | RH | DHFR | Toxoplasma gondii |  | IC50 | 0.052 µM |
| C[C@@H]1CN(c2c(F)c(N)c3c(=O)c(C(=O)O)cn(C4CC4)c3c2F)C[C@H](C)N1 |  |  | Gyrase (V90A+V94D mutant) | Mycobacterium tuberculosis |  | IC50 | >400 µg/mL |
| O=c1[nH]c(=O)n([C@@H]2O[C@H](CO)[C@@H](O)[C@@H]2O)cc1/C=C/Cl |  |  | Thymidine kinase | Varicella zoster virus |  | Ki | 0.42 µM |
| CC1(C)N=C(N)N=C(N)N1c1cccc(OCCCOc2ccc(N)cc2)c1 |  | RH | DHFR | Toxoplasma gondii |  | IC50 | 0.03 µM |

Again, the opening 7 rows:

SMILES,tested at,strain or isolate,target,species,method,measure,result
CC(N)C12CC3CC(CC(C3)C1)C2,50 µg/mL,A/PR/1/74 rimantadine-susceptible,Virion transcriptase,Influenza A virus,nucleotide incorporation,inhibition,19%
O=P(O)(O)C(F)(Br)P(=O)(O)O,,,DNA polymerase,Herpes simplex virus 1,,IC50,>100 µM
COC(=O)C1c2cc3c(c(O)c2C(O)CC1(C)O)C(=O)c1c(O)cc2c(c1C3=O)OC1OC2(C)C(O)C(N(C)C)C1O,,,NTPase/helicase,West Nile virus,,IC50,>650 µM
CC(=O)N1CCN(c2ccc(OC[C@H]3CO[C@](Cn4ccnc4)(c4ccc(Cl)cc4Cl)O3)cc2)CC1,,652,Lanosterol 14-alpha demethylase,Candida albicans,,IC50,0.038 µM
COC(=O)c1cc(=O)[nH]c(=O)[nH]1,2000 µM,RH,Uracil phosphoribosyltransferase,Toxoplasma gondii,,inhibition,<5%
CC#Cc1cn([C@@H]2O[C@H](CO)[C@@H](O)[C@@H]2O)c(=O)[nH]c1=O,,,Thymidine kinase,Varicella zoster virus,,Ki,5.19 µM
NC1C(=O)NC(=O)NC1=O,,RH,Uracil phosphoribosyltransferase,Toxoplasma gondii,,IC50,>2000 µM